PubChem BioAssay AID624099 | ICCB-Longwood, 2012

- Screen: 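Host factors E2 relies on to silence an HPV18 LCR reporter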 (primary screen)
- Cell system: human C33A cervical carcinoma cells (HPV-negative) stably expressing BPV1 E2 and an HPV18 LCR luciferase reporter
- Knock-down reagent: siRNA pool against human genes, 40 nM
- Timing: 72 h
- Measurement: 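Per-well luciferase luminescence, z-scored on each plate against the plate mean and SD with control wells left out, then averaged across three replicate plates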
- Scale: mean z-score and z-score: higher = stronger reporter signal, weaker E2 silencing
- Hit rule: 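Mean z ≥ 2 together with z ≥ 2 in two or more of the three replicates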
The deposit covers about 21,000 reagents; this is a random part of them. 497 of them (2.4%) count as active. 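Higher z means weaker E2 silencing; only reporter increases were scored, and knock-downs that hurt cell survival may mask genuine repressor factors.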 The numbers tell different reagents against one gene apart.

RECQL — mean z-score = 1.6; z-score, replicate A = 1.47; z-score, replicate B = 1.54; z-score, replicate C = 1.78; Outcome = inactive
IFITM2 — mean z-score = -0.05; z-score, replicate A = 0.07; z-score, replicate B = -0.19; z-score, replicate C = -0.04; Outcome = inactive
FNDC9 — mean z-score = 0.69; z-score, replicate A = 0.3; z-score, replicate B = 0.98; z-score, replicate C = 0.79; Outcome = inactive
LINC01949 — mean z-score = -0.53; z-score, replicate A = -0.64; z-score, replicate B = -0.4; z-score, replicate C = -0.53; Outcome = inactive
NCAPG — mean z-score = 1.16; z-score, replicate A = 1.62; z-score, replicate B = 1.27; z-score, replicate C = 0.6; Outcome = inactive
LINC00523 — mean z-score = -0.45; z-score, replicate A = -0.69; z-score, replicate B = -0.56; z-score, replicate C = -0.1; Outcome = inactive
SLC18A3 — mean z-score = 0.37; z-score, replicate A = 0.45; z-score, replicate B = 0.53; z-score, replicate C = 0.13; Outcome = inactive
RSPH6A — mean z-score = 0.65; z-score, replicate A = 1.1; z-score, replicate B = 0.21; z-score, replicate C = 0.63; Outcome = inactive
KLHDC7A — mean z-score = -0.15; z-score, replicate A = -0.07; z-score, replicate B = -0.17; z-score, replicate C = -0.22; Outcome = inactive

The list goes on; the last 3 above are carried over.
SLC18A3 — mean z-score = 0.37; z-score, replicate A = 0.45; z-score, replicate B = 0.53; z-score, replicate C = 0.13; Outcome = inactive
RSPH6A — mean z-score = 0.65; z-score, replicate A = 1.1; z-score, replicate B = 0.21; z-score, replicate C = 0.63; Outcome = inactive
KLHDC7A — mean z-score = -0.15; z-score, replicate A = -0.07; z-score, replicate B = -0.17; z-score, replicate C = -0.22; Outcome = inactive
ACSS3 — mean z-score = -0.53; z-score, replicate A = -0.79; z-score, replicate B = -0.98; z-score, replicate C = 0.17; Outcome = inactive
CDC16 — mean z-score = -0.83; z-score, replicate A = -0.76; z-score, replicate B = -0.69; z-score, replicate C = -1.05; Outcome = inactive
TASL — mean z-score = 0.55; z-score, replicate A = 0.9; z-score, replicate B = 0.39; z-score, replicate C = 0.38; Outcome = inactive
PPIL3 — mean z-score = -0.78; z-score, replicate A = -0.58; z-score, replicate B = -0.53; z-score, replicate C = -1.24; Outcome = inactive
CHST13 — mean z-score = 0.48; z-score, replicate A = 0.26; z-score, replicate B = 0.47; z-score, replicate C = 0.69; Outcome = inactive
ALAD — mean z-score = 0.41; z-score, replicate A = 0.21; z-score, replicate B = 0.33; z-score, replicate C = 0.69; Outcome = inactive
PRRC2A — mean z-score = 0.94; z-score, replicate A = 1.15; z-score, replicate B = 0.97; z-score, replicate C = 0.7; Outcome = inactive
PGAP2 — mean z-score = -0.03; z-score, replicate A = 0.13; z-score, replicate B = -0.22; z-score, replicate C = -0.02; Outcome = inactive
PRED4 (retired record) — mean z-score = 0.46; z-score, replicate A = 0.39; z-score, replicate B = 0.23; z-score, replicate C = 0.75; Outcome = inactive
ABLIM2 — mean z-score = 0.47; z-score, replicate A = 0.68; z-score, replicate B = 0.51; z-score, replicate C = 0.21; Outcome = inactive
LAMTOR4 #1 — mean z-score = -0.35; z-score, replicate A = -0.1; z-score, replicate B = -0.35; z-score, replicate C = -0.61; Outcome = inactive
LAMTOR4 #2 — mean z-score = -1.13; z-score, replicate A = -1.14; z-score, replicate B = -1.32; z-score, replicate C = -0.93; Outcome = inactive
